Test results from patent US20260384408A1, “SUBSTITUTED BENZODIAZEPINES AS FUNGICIDES” (published 2026).

Columns and labels:
Alternaria solani = details: 31 ppm; relative to compound-free control (100%)
Pyricularia oryzae = details: 31 ppm; relative to compound-free control (100%)
Sclerotinia sclerotiorum = experiment: Preventative fungicidal control of white mold on cabbage caused by Sclerotinia sclerotiorum (greenhouse); details: 125 ppm, 8 days, untreated 80% infected
Botrytis cinerea = experiment: Preventative fungicidal control of Botrytis cinerea on leaves of green pepper (greenhouse); details: 125 ppm, inoculated next day, assessed after 5 days, untreated 90% infected
Cercospora zeae maydis = details: 31 ppm; relative to compound-free control (100%)
Cercospora beticula = details: 31 ppm; relative to compound-free control (100%)

Cc1cc(C2=NC(C)(C)C(C)(C)N(C)c3c(F)cccc32)cnc1C(F)F
growth of the pathogen (relative growth) (Alternaria solani): up to 21% | growth of the pathogen (relative growth) (Pyricularia oryzae): up to 22% | growth of the pathogen (% diseased leaf area) (Sclerotinia sclerotiorum): at most 20% | growth of the pathogen (% diseased leaf area) (Botrytis cinerea): at most 22%

Cc1cc(C2=NC(C)C(C)N(C)c3c(Br)cccc32)cnc1C(F)F (stereo not shown)
growth of the pathogen (relative growth) (Alternaria solani): up to 21% | growth of the pathogen (relative growth) (Pyricularia oryzae): up to 22% | growth of the pathogen (% diseased leaf area) (Botrytis cinerea): at most 22%

Cc1cc(C2=NC(C)CN(C)c3c(F)cccc32)cnc1C(F)F (stereo not shown)
growth of the pathogen (relative growth) (Alternaria solani): up to 21% | growth of the pathogen (relative growth) (Pyricularia oryzae): up to 22% | growth of the pathogen (% diseased leaf area) (Sclerotinia sclerotiorum): at most 20% | growth of the pathogen (% diseased leaf area) (Botrytis cinerea): at most 22%

Cc1cc(C2=NC3(CC3)C(C)N(C)c3c(F)cccc32)cnc1C (stereo not shown)
growth of the pathogen (relative growth) (Cercospora zeae maydis): up to 17% | growth of the pathogen (relative growth) (Alternaria solani): up to 21% | growth of the pathogen (relative growth) (Cercospora beticula): up to 18% | growth of the pathogen (% diseased leaf area) (Botrytis cinerea): at most 22%

Cc1cc(C2=NC3(CC3)C(C)N(C)c3c(F)cccc32)cnc1C(F)F (stereo not shown)
growth of the pathogen (relative growth) (Alternaria solani): up to 21% | growth of the pathogen (relative growth) (Cercospora beticula): up to 18%

Cc1cc(C2=NC3(CC3)CN(C)c3c(F)cccc32)cnc1C
growth of the pathogen (relative growth) (Cercospora zeae maydis): up to 17% | growth of the pathogen (relative growth) (Alternaria solani): up to 21% | growth of the pathogen (relative growth) (Cercospora beticula): up to 18% | growth of the pathogen (% diseased leaf area) (Botrytis cinerea): at most 22%

Cc1cc(C2=NCC(C)(C)N(C)c3c(F)cccc32)cnc1C(F)F
growth of the pathogen (relative growth) (Alternaria solani): up to 21% | growth of the pathogen (relative growth) (Pyricularia oryzae): up to 22% | growth of the pathogen (% diseased leaf area) (Sclerotinia sclerotiorum): at most 20% | growth of the pathogen (% diseased leaf area) (Botrytis cinerea): at most 22%

Cc1cc(C2=NCC(C)N(C)c3c(F)cccc32)cnc1C(F)F (stereo not shown)
growth of the pathogen (relative growth) (Alternaria solani): up to 21% | growth of the pathogen (relative growth) (Cercospora beticula): up to 18% | growth of the pathogen (relative growth) (Pyricularia oryzae): up to 22% | growth of the pathogen (% diseased leaf area) (Sclerotinia sclerotiorum): at most 20% | growth of the pathogen (% diseased leaf area) (Botrytis cinerea): at most 22%

Cc1cc(C2=NCC3(CC3)N(C)c3c(F)cccc32)cnc1C(F)F
growth of the pathogen (relative growth) (Alternaria solani): up to 21% | growth of the pathogen (relative growth) (Pyricularia oryzae): up to 22% | growth of the pathogen (% diseased leaf area) (Botrytis cinerea): at most 22%

Cc1cc(C2=N[C@@H](C)CN(C)c3c(F)cccc32)cnc1C(F)F
growth of the pathogen (relative growth) (Cercospora zeae maydis): up to 17% | growth of the pathogen (relative growth) (Alternaria solani): up to 21% | growth of the pathogen (relative growth) (Pyricularia oryzae): up to 22% | growth of the pathogen (% diseased leaf area) (Sclerotinia sclerotiorum): at most 20% | growth of the pathogen (% diseased leaf area) (Botrytis cinerea): at most 22%

Cc1cc(C2=N[C@H](C)CN(C)c3c(F)cccc32)cnc1C(F)F
growth of the pathogen (relative growth) (Pyricularia oryzae): up to 22%

C=CCN1c2c(F)cccc2C(c2cnc(C(F)F)c(C)c2)=N[C@@H](C)[C@@H]1C (racemic)
growth of the pathogen (relative growth) (Cercospora beticula): up to 18% | growth of the pathogen (% diseased leaf area) (Botrytis cinerea): at most 22%

C=CCN1c2c(F)cccc2C(c2cnc(C(F)F)c(C)c2)=N[C@@H](C)[C@H]1C (racemic)
growth of the pathogen (relative growth) (Cercospora zeae maydis): up to 17% | growth of the pathogen (relative growth) (Cercospora beticula): up to 18% | growth of the pathogen (relative growth) (Pyricularia oryzae): up to 22% | growth of the pathogen (% diseased leaf area) (Botrytis cinerea): at most 22%

CC#CCN1c2c(F)cccc2C(c2cnc(C(F)F)c(C)c2)=N[C@@H](C)[C@@H]1C (racemic)
growth of the pathogen (relative growth) (Cercospora zeae maydis): up to 17% | growth of the pathogen (relative growth) (Cercospora beticula): up to 18% | growth of the pathogen (% diseased leaf area) (Botrytis cinerea): at most 22%

CC#CCN1c2c(F)cccc2C(c2cnc(C(F)F)c(C)c2)=N[C@@H](C)[C@H]1C (racemic)
growth of the pathogen (% diseased leaf area) (Sclerotinia sclerotiorum): at most 20% | growth of the pathogen (% diseased leaf area) (Botrytis cinerea): at most 22%

CCCN1c2c(F)cccc2C(c2cnc(C(F)F)c(C)c2)=N[C@@H](C)[C@@H]1C (racemic)
growth of the pathogen (relative growth) (Cercospora beticula): up to 18% | growth of the pathogen (% diseased leaf area) (Botrytis cinerea): at most 22%

CCCN1c2c(F)cccc2C(c2cnc(C(F)F)c(C)c2)=N[C@@H](C)[C@H]1C (racemic)
growth of the pathogen (relative growth) (Cercospora zeae maydis): up to 17% | growth of the pathogen (% diseased leaf area) (Sclerotinia sclerotiorum): at most 20% | growth of the pathogen (% diseased leaf area) (Botrytis cinerea): at most 22%

CCN1c2c(F)cccc2C(c2cnc(C(F)F)c(C)c2)=N[C@@H](C)[C@@H]1C (racemic)
growth of the pathogen (relative growth) (Cercospora zeae maydis): up to 17% | growth of the pathogen (% diseased leaf area) (Sclerotinia sclerotiorum): at most 20% | growth of the pathogen (% diseased leaf area) (Botrytis cinerea): at most 22%

CCN1c2c(F)cccc2C(c2cnc(C(F)F)c(C)c2)=N[C@@H](C)[C@H]1C (racemic)
growth of the pathogen (% diseased leaf area) (Botrytis cinerea): at most 22%

COC(=O)CN1c2c(F)cccc2C(c2cnc(C(F)F)c(C)c2)=N[C@@H](C)[C@H]1C (racemic)
growth of the pathogen (% diseased leaf area) (Botrytis cinerea): at most 22%

COc1ccc2c(c1F)N(C)[C@@H](C)[C@H](C)N=C2c1cnc(C(F)F)c(C)c1 (racemic)
growth of the pathogen (relative growth) (Alternaria solani): up to 21% | growth of the pathogen (relative growth) (Pyricularia oryzae): up to 22% | growth of the pathogen (% diseased leaf area) (Botrytis cinerea): at most 22%

COc1ccc2c(c1F)N(C)[C@H](C)[C@H](C)N=C2c1cnc(C(F)F)c(C)c1 (racemic)
growth of the pathogen (relative growth) (Alternaria solani): up to 21% | growth of the pathogen (relative growth) (Pyricularia oryzae): up to 22% | growth of the pathogen (% diseased leaf area) (Botrytis cinerea): at most 22%

CSc1ccc2c(c1F)N(C)[C@@H](C)[C@H](C)N=C2c1cnc(C(F)F)c(C)c1 (racemic)
growth of the pathogen (relative growth) (Alternaria solani): up to 21% | growth of the pathogen (relative growth) (Pyricularia oryzae): up to 22% | growth of the pathogen (% diseased leaf area) (Botrytis cinerea): at most 22%

CSc1ccc2c(c1F)N(C)[C@H](C)[C@H](C)N=C2c1cnc(C(F)F)c(C)c1 (racemic)
growth of the pathogen (relative growth) (Pyricularia oryzae): up to 22% | growth of the pathogen (% diseased leaf area) (Botrytis cinerea): at most 22%

Cc1cc(C2=N[C@@H](C)[C@@H](C)N(C)c3c(Br)cccc32)cnc1C(F)F (racemic)
growth of the pathogen (relative growth) (Pyricularia oryzae): up to 22% | growth of the pathogen (% diseased leaf area) (Sclerotinia sclerotiorum): at most 20% | growth of the pathogen (% diseased leaf area) (Botrytis cinerea): at most 22%

Cc1cc(C2=N[C@@H](C)[C@@H](C)N(C)c3c(Cl)cccc32)cnc1C(F)F (racemic)
growth of the pathogen (relative growth) (Pyricularia oryzae): up to 22% | growth of the pathogen (% diseased leaf area) (Sclerotinia sclerotiorum): at most 20% | growth of the pathogen (% diseased leaf area) (Botrytis cinerea): at most 22%

Cc1cc(C2=N[C@@H](C)[C@@H](C)N(C)c3c(F)cccc32)cnc1C (racemic)
growth of the pathogen (relative growth) (Alternaria solani): up to 21% | growth of the pathogen (relative growth) (Pyricularia oryzae): up to 22% | growth of the pathogen (% diseased leaf area) (Botrytis cinerea): at most 22%

Cc1cc(C2=N[C@@H](C)[C@@H](C)N(C)c3c2ccc(Br)c3F)cnc1C(F)F (racemic)
growth of the pathogen (relative growth) (Pyricularia oryzae): up to 22% | growth of the pathogen (% diseased leaf area) (Botrytis cinerea): at most 22%

Cc1cc(C2=N[C@@H](C)[C@@H](C)N(C)c3c2ccc(F)c3F)cnc1C(F)F (racemic)
growth of the pathogen (relative growth) (Alternaria solani): up to 21% | growth of the pathogen (relative growth) (Pyricularia oryzae): up to 22% | growth of the pathogen (% diseased leaf area) (Sclerotinia sclerotiorum): at most 20% | growth of the pathogen (% diseased leaf area) (Botrytis cinerea): at most 22%

Cc1cc(C2=N[C@@H](C)[C@@H](C)N(C)c3ccccc32)cnc1C (racemic)
growth of the pathogen (relative growth) (Cercospora zeae maydis): up to 17% | growth of the pathogen (relative growth) (Alternaria solani): up to 21%

Cc1cc(C2=N[C@@H](C)[C@H](C)N(C)c3c(Cl)cccc32)cnc1C(F)F (racemic)
growth of the pathogen (relative growth) (Alternaria solani): up to 21% | growth of the pathogen (relative growth) (Pyricularia oryzae): up to 22% | growth of the pathogen (% diseased leaf area) (Sclerotinia sclerotiorum): at most 20% | growth of the pathogen (% diseased leaf area) (Botrytis cinerea): at most 22%

Cc1cc(C2=N[C@@H](C)[C@H](C)N(C)c3c(F)cccc32)cnc1C (racemic)
growth of the pathogen (relative growth) (Alternaria solani): up to 21% | growth of the pathogen (relative growth) (Pyricularia oryzae): up to 22% | growth of the pathogen (% diseased leaf area) (Botrytis cinerea): at most 22%

Cc1cc(C2=N[C@@H](C)[C@H](C)N(C)c3c2ccc(Br)c3F)cnc1C(F)F (racemic)
growth of the pathogen (relative growth) (Alternaria solani): up to 21% | growth of the pathogen (relative growth) (Pyricularia oryzae): up to 22% | growth of the pathogen (% diseased leaf area) (Botrytis cinerea): at most 22%

Cc1cc(C2=N[C@@H](C)[C@H](C)N(C)c3c2ccc(Cl)c3F)cnc1C(F)F (racemic)
growth of the pathogen (relative growth) (Cercospora zeae maydis): up to 17% | growth of the pathogen (relative growth) (Alternaria solani): up to 21% | growth of the pathogen (relative growth) (Pyricularia oryzae): up to 22% | growth of the pathogen (% diseased leaf area) (Botrytis cinerea): at most 22%

Cc1cc(C2=N[C@@H](C)[C@H](C)N(C)c3c2ccc(F)c3F)cnc1C(F)F (racemic)
growth of the pathogen (relative growth) (Alternaria solani): up to 21% | growth of the pathogen (relative growth) (Pyricularia oryzae): up to 22% | growth of the pathogen (% diseased leaf area) (Sclerotinia sclerotiorum): at most 20% | growth of the pathogen (% diseased leaf area) (Botrytis cinerea): at most 22%
